# Data published in patent publication US20220193209A1, “COMPOSITIONS AND METHODS FOR REACTIVATING LATENT IMMUNODEFICIENCY VIRUS AND/OR TREATING IMMUNODEFICIENCY VIRUS INFECTION” (The J. David Gladstone institutes, a testamentary trust …, priority 2019, published 2022).
# Test system: primary CD4+ T cells
# Experiment: RNA-Seq of primary CD4+ T cells
# Assay type: cell-based, human
# [1] = 1000 nM vs DMSO, 48 hours, q<0.05
smiles,measurement,setting,value
"CCn1cc(C(=O)O)c(=O)c2c(N)c(F)c(NC3CCCCC3)cc21 [AS1842856, 5-amino-7-(cyclohexylamino)-1-ethyl-6-fluoro-4-oxo-1,4-dihydro-quinoline-3-carboxylic acid]",genes significantly down-regulated,[1],160 genes
same,genes significantly up-regulated,[1],172 genes
same,expression of glycolytic enzymes or FOXO1 itself,CD4+ T cells,did not affect
